Assay results as given in the supplement of paper PMC3578754.

What was measured:
Experiment in all cases: fold change of IC50 against reference virus; higher = more resistant
zalcitabine = compound: Nc1ccn([C@H]2CC[C@@H](CO)O2)c(=O)n1 [zalcitabine]
Description: (§1)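 Cell-culture drug susceptibility tests of virus bearing the reverse transcriptase of each isolate, gathered from many studies.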

zidovudine = compound: Cc1cn([C@H]2C[C@H](N=[N+]=[N-])[C@@H](CO)O2)c(=O)[nH]c1=O [zidovudine]
Description: as §1

didanosine = compound: O=c1[nH]cnc2c1ncn2[C@H]1CC[C@@H](CO)O1 [didanosine]
Description: as §1

delavirdine = compound: CC(C)Nc1cccnc1N1CCN(C(=O)c2cc3cc(NS(C)(=O)=O)ccc3[nH]2)CC1 [delavirdine]
Description: as §1

abacavir = compound: Nc1nc(NC2CC2)c2ncn([C@H]3C=C[C@@H](CO)C3)c2n1 [abacavir]
Description: as §1

nevirapine = compound: Cc1ccnc2c1NC(=O)c1cccnc1N2C1CC1 [nevirapine]
Description: as §1

efavirenz = compound: O=C1Nc2ccc(Cl)cc2[C@@](C#CC2CC2)(C(F)(F)F)O1 [efavirenz]
Description: as §1

stavudine = compound: Cc1cn([C@H]2C=C[C@@H](CO)O2)c(=O)[nH]c1=O [stavudine]
Description: as §1

Test System | fold change of IC50 against reference virus (zalcitabine) | fold change of IC50 against reference virus (zidovudine) | fold change of IC50 against reference virus (didanosine) | fold change of IC50 against reference virus (delavirdine) | fold change of IC50 against reference virus (abacavir) | fold change of IC50 against reference virus (nevirapine) | fold change of IC50 against reference virus (efavirenz) | fold change of IC50 against reference virus (stavudine)
HIV-1 isolate 36 (reverse transcriptase changes: L74V K122E F214L T215Y A272P K277R A376T A400T D460N S468T H483Y K512Q S519N, study 51) | 15 | 1.7 | 8.6 | – | – | – | – | –
HIV-1 isolate 75 (reverse transcriptase changes: K65R S68G K122E F214L A272P K277R A376T A400T D460N S468T H483Y K512Q S519N, study 141) | 6 | 1.6 | 4.4 | – | – | – | – | –
HIV-1 isolate 265 (reverse transcriptase changes: K122E M184V F214L A272P K277R A376T A400T D460N S468T H483Y K512Q S519N, study 74) | 5 | 0.5 | 5.4 | – | – | – | – | –
HIV-1 isolate 397 (reverse transcriptase changes: K122E F214L A272P K277R A376T A400T K451R V458L D460N R461K S468P D471N H483Y K512Q S519N E529Q V559I, study 74) | 1 | 1 | 1 | – | – | – | – | –
HIV-1 isolate 405 (reverse transcriptase changes: D67N K102Q S162C T215Y K277R I293V R358K V435I S468P K550G, study 142) | 1.3 | 8.1 | 1.3 | – | – | – | – | –
HIV-1 isolate 449 (reverse transcriptase changes: L74V K102Q S162C, study 39) | 14 | – | 6 | – | – | – | – | –
HIV-1 isolate 488 (reverse transcriptase changes: D67N T69D K102Q S162C L210W T215Y K277R I293V R358K V435I S468P K550G, study 142) | 3.6 | 100 | 1.5 | – | – | – | – | –
HIV-1 isolate 517 (reverse transcriptase changes: K102Q Q151M S162C M184V K277R, study 59) | – | 2.1 | 6.8 | 1.5 | 20.9 | 1.5 | 1.2 | 2.4
HIV-1 isolate 557 (reverse transcriptase changes: T69D K102Q S162C K277R I293V R358K V435I S468P K550G, study 142) | 5.4 | 1 | 1.1 | – | – | – | – | –
HIV-1 isolate 558 (reverse transcriptase changes: K65R K122E F214L A272P K277R A376T A400T D460N S468T H483Y K512Q S519N, study 74) | 12 | 0.4 | 3.1 | – | – | – | – | –
HIV-1 isolate 567 (reverse transcriptase changes: V35I M41L E44D D67N T69D K102R K104N V118I K122E Q207E L210W R211K T215Y L246P, study 142) | 4 | 67 | 1 | – | – | – | – | –
HIV-1 isolate 580 (reverse transcriptase changes: L92I K122E D123S R211K V245M I326V I329L R358K T377I K390R T403M R461K L469I, study 103) | 1 | 0.4 | 0.8 | – | – | – | – | –
HIV-1 isolate 657 (reverse transcriptase changes: K122E S156A R172K S251R A272P K277R A376T A400T N447S D460N S468T, study 103) | 1 | 0.2 | 0.4 | – | – | – | – | –
HIV-1 isolate 669 (reverse transcriptase changes: K122E F214L T215Y A272P K277R A376T A400T D460N S468T H483Y K512Q S519N, study 51) | 1 | 20 | 1.3 | – | – | – | – | –
HIV-1 isolate 843 (reverse transcriptase changes: D67N T69D K102Q S162C K277R I293V R358K V435I S468P K550G, study 142) | 1.4 | 1 | 1 | – | – | – | – | –
HIV-1 isolate 895 (reverse transcriptase changes: K65R K122E F214L A272P K277R A376T A400T D460N S468T H483Y K512Q S519N, study 141) | 4 | 1 | 8.6 | – | – | – | – | –
HIV-1 isolate 914 (reverse transcriptase changes: K103R K122E F214L A272P K275R K277R K350R A376T A400T D460N S468T H483Y K512Q S519N, study 102) | 1 | 1 | 1 | – | – | – | – | –
HIV-1 isolate 936 (reverse transcriptase changes: K122E F214L A272P K277R A376T A400T D460N S468T H483Y K512Q S519N, study 74) | 1 | 0.4 | 1 | – | – | – | – | –
HIV-1 isolate 1026 (reverse transcriptase changes: M41L K102Q S162C M184V T215Y K277R, study 59) | – | 1.7 | 1.3 | 0.1 | 6.9 | 0.4 | 0.3 | 1.3
HIV-1 isolate 1086 (reverse transcriptase changes: K102Q S162C M184V, study 39) | 2 | 1 | 1 | – | – | – | – | –
HIV-1 isolate 1134 (reverse transcriptase changes: V35M T39A E40F M41L K43E D67N K103S V118I K122E R172K D177E I178F G190A Q207N L210W R211K T215Y K219R K238T A272P T286A I293V, study 15) | – | 555 | 4.4 | – | 20 | 218 | 85 | 20
HIV-1 isolate 1143 (reverse transcriptase changes: M41L D67N T69D K102Q S162C L210W T215Y K277R I293V R358K V435I S468P K550G, study 142) | 1 | 98 | 0.8 | – | – | – | – | –
HIV-1 isolate 1228 (reverse transcriptase changes: T69D K102Q S162C T165I K277R I293V R358K V435I S468P K550G, study 142) | 4 | 1 | 1 | – | – | – | – | –
HIV-1 isolate 1324 (reverse transcriptase changes: D67N T69D K102Q S162C T215Y K277R I293V R358K V435I S468P K550G, study 142) | 4 | 8.8 | 1 | – | – | – | – | –
HIV-1 isolate 1400 (reverse transcriptase changes: K102Q S162C K277R I293V R358K V435I S468P K550G, study 142) | 1 | 1 | 1 | – | – | – | – | –
HIV-1 isolate 1419 (reverse transcriptase changes: K65R K122E M184V F214L A272P K277R A376T A400T D460N S468T H483Y K512Q S519N, study 74) | 13 | 0.3 | 4.9 | – | – | – | – | –
HIV-1 isolate 1447 (reverse transcriptase changes: A62V V75I F77L F116Y V118I Q151M K166R I202V, study 77) | 250 | 675 | 22 | – | – | – | – | –
HIV-1 isolate 1549 (reverse transcriptase changes: K122E F214L A272P K277R A376T A400T D460N S468T H483Y K512Q S519N, study 141) | 1 | 1 | 1 | – | – | – | – | –
HIV-1 isolate 1556 (reverse transcriptase changes: T69D K102Q S162C L210W T215Y K277R I293V R358K V435I S468P K550G, study 142) | 2 | 1.7 | 1 | – | – | – | – | –
HIV-1 isolate 1645 (reverse transcriptase changes: K122E F214L A272P K277R M357T A376T A400T N447S D460N S468T S519N, study 102) | 1 | 1 | 1 | – | – | – | – | –

Fold change is the IC50 on the isolate divided by the IC50 on a reference virus; 1 = unchanged, higher = more resistant. Changes are given against the subtype B consensus. No active / inactive call. The values were gathered from many studies (numbered anew) with different assays, which the source does not name. Most viruses are clinical isolates; some are laboratory strains or clones with known resistance changes. Isolates with mixed residues are left out; stretches that were not sequenced show no change. Round top values that many isolates share are read here as limits; other very high values and 0.1 may be limits too.
